Publication PMC6572795, “The pore structure of Clostridium perfringens epsilon toxin” (2019)

Biological target: trypsin-activated recombinant wild-type epsilon toxin (Etx) (Clostridium perfringens)

“trypsin-activated recombinant wild-type epsilon toxin (Etx)” showed a stoichiometry N of 7.
